Drawing on patent US20240343781A1, this text covers Kd and EC50 for seven substances.

For test [1], the target named is SARS-CoV Spike (SARS-CoV) (UniProt P59594). Briefly: SPR.
Another test concerns the target SARS-CoV-2 (SARS-CoV-2) (UniProt P0DTC2). The test is described as follows: ELISA.
The next test addresses SARS-CoV-2 Spike. Briefly: SPR.
A further test has as its target BtKY72. The test is described as follows: ELISA.
A further test concerns the target BM-4831. Briefly: ELISA.
In another test the target is SARS-CoV. The test is described as follows: ELISA.
In a further test the target is RmYN02. The test is described as follows: ELISA.
In another test the target is RaTG13. Briefly: ELISA.
For another test, the target named is Yunnan2011. The test is described as follows: ELISA.
For another test, the target named is WIV1. Briefly: ELISA.
For another test, the target named is Rs4081. The test is described as follows: ELISA.
The target in the next test is SHC014. Briefly: ELISA.
The next test deals with GX-Pangolin. The test is described as follows: ELISA.
A further test addresses Rf1. The test is described as follows: ELISA.

ADG-2 showed a dissociation constant (Kd) in test [1] of 1.41 pM. Moreover, the EC50 with SARS-CoV-2 (SARS-CoV-2) was found to be 3 ng/mL.

As for DH1047, the Kd in test [1] came out at 1.11 pM. The substance also gave an EC50 with SARS-CoV-2 (SARS-CoV-2) of 4 ng/mL.

In the case of S2X259, in test [1], the dissociation constant Kd was determined as 3.65 pM. The EC50 in the test with SARS-CoV-2 (SARS-CoV-2) turned out to be 3 ng/mL.

For the substance S2H97, in test [1], the equilibrium dissociation constant (Kd) was 70.6 pM. The concentration giving a half-maximal response (EC50) with SARS-CoV-2 (SARS-CoV-2) amounted to 3 ng/mL.

In [1], REGN10985 gave a Kd of 4650 pM. In the test with SARS-CoV-2 (SARS-CoV-2), this substance returned an EC50 of 1 ng/mL.

On to COVA1-16, for which the concentration giving a half-maximal response (EC50) in the test with SARS-CoV-2 (SARS-CoV-2) amounted to 4 ng/mL.

Consider CR3022, for which the values for the dissociation constant (Kd) (in test [1]; in the test with SARS-CoV-2 Spike) were 0.759 pM and 1790 pM, respectively. In addition, the EC50 in the test with BtKY72 is 5 ng/mL; in the test with BM-4831, greater than 10000 ng/mL; in the test with SARS-CoV, 9 ng/mL; in the test with RmYN02, greater than 10000 ng/mL; with RaTG13, 262 ng/mL; with Yunnan2011, 307 ng/mL. The EC50 with WIV1 was 4 ng/mL; with Rs4081 it was 826 ng/mL; with SHC014 it was 6 ng/mL; with GX-Pangolin, 30 ng/mL; with Rf1, greater than 10000 ng/mL.
